## Potato spindle tuber viroid, loop 1: variant abundance in plants

PSTVd intermediate strain, loop 1: wild type CCUCGG, pool pattern CNNNNG; 5' to 3', with the closing base pair.

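Three N. benthamiana plants were inoculated with the whole mutant pool. Samples came from the inoculated region at 5 days, the leaf margin at 10 and upper systemic leaves at 12.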

Numbers give reads per thousand; 0 = not seen among the reads, higher = more abundant.
Each site shows the three plants.
"Pool" is the share in the plasmid pool used as inoculum, on the same scale.
The inoculated region was read from the minus strand, the other sites from the plus strand.
Sequences that differ at fixed positions probably stem from PCR or sequencing errors, and defective variants can be carried along by functional ones.
With 32,791-60,834 reads a sample, very low values are single reads.
Wild type was 20.1 per thousand in the pool and the most common sequence in every sample (inoculated region 197, 219, 222; leaf margin 828, 823, 779; systemic leaves 914, 907, 857).

| # | sequence | pool | inoculated region | leaf margin | systemic leaves |
|---|---|---|---|---|---|
| 1 | AAUAUG | 0.0131 | 0 / 0 / 0 | 0 / 0 / 0 | 0 / 0 / 0 |
| 2 | AUAUUG | 0.0131 | 0 / 0 / 0 | 0 / 0 / 0 | 0 / 0 / 0 |
| 3 | CAACAG | 3.80 | 2.31 / 2.57 / 2.47 | 0 / 0 / 0 | 0 / 0 / 0.0164 |
| 4 | CAACGG | 3.88 | 3.64 / 2.74 / 2.30 | 0 / 0.0211 / 0.0305 | 0 / 0 / 0 |
| 5 | CAAUCG | 3.26 | 3.19 / 2.66 / 2.63 | 0 / 0 / 0 | 0 / 0 / 0 |
| 6 | CACCAG | 3.93 | 3.03 / 2.59 / 3.05 | 0 / 0 / 0 | 0 / 0 / 0.0164 |
| 7 | CACCGG | 3.28 | 3.08 / 2.70 / 2.36 | 0 / 0 / 4.57 | 0 / 0 / 0 |
| 8 | CAGAUG | 4.20 | 3.32 / 2.44 / 2.89 | 0 / 0 / 0.0305 | 0 / 0 / 0 |
| 9 | CAUGCG | 3.73 | 2.60 / 2.96 / 3.02 | 0 / 0 / 0 | 0 / 0 / 0 |
| 10 | CAUGGG | 4.80 | 2.95 / 2.76 / 2.88 | 0.0199 / 0 / 0.0305 | 0 / 0.0180 / 0.0658 |
| 11 | CAUUAG | 3.56 | 2.60 / 2.94 / 2.54 | 0 / 0 / 0 | 0 / 0 / 0.0164 |
| 12 | CAUUGG | 4.20 | 3.04 / 2.89 / 2.59 | 0 / 0 / 0 | 0 / 0.0180 / 0 |
| 13 | CCACUG | 3.27 | 2.60 / 2.64 / 2.68 | 0.0199 / 0.0211 / 0 | 0 / 0 / 0 |
| 14 | CCAUCG | 3.27 | 2.69 / 2.66 / 2.48 | 0.0199 / 0 / 0 | 0 / 0 / 0 |
| 15 | CCCGGG | 3.26 | 2.32 / 2.68 / 2.54 | 0.0199 / 0 / 0.0305 | 0 / 0 / 0 |
| 16 | CCCGUG | 3.40 | 2.95 / 2.74 / 2.79 | 0 / 7.52 / 4.60 | 0 / 0 / 0 |
| 17 | CCCUUG | 4.02 | 2.73 / 2.85 / 2.82 | 0 / 0 / 0 | 0 / 0 / 0.0164 |
| 18 | CCGCCG | 3.92 | 2.62 / 2.36 / 3.05 | 15.8 / 14.0 / 13.0 | 0 / 0 / 1.18 |
| 19 | CCGCUG | 3.95 | 3.04 / 2.91 / 2.52 | 0 / 0 / 0 | 0 / 0 / 0.0329 |
| 20 | CCGGUG | 3.47 | 2.79 / 2.44 / 2.75 | 0 / 0.0211 / 0 | 0 / 0 / 0 |
| 21 | CCUGAG | 4.73 | 3.32 / 2.81 / 3.00 | 0 / 0 / 0.0305 | 0 / 0 / 0.0329 |
| 22 | CCUGGG | 3.34 | 3.49 / 2.70 / 3.63 | 0.139 / 0.507 / 0.183 | 4.89 / 7.60 / 7.45 |
| 23 | CGAAUG | 4.60 | 2.66 / 2.66 / 3.00 | 0.0199 / 0 / 0.0305 | 0 / 0 / 0.0822 |
| 24 | CGACAG | 3.36 | 2.93 / 2.72 / 2.93 | 0 / 0 / 0 | 0 / 0 / 0 |
| 25 | CGACGG | 3.51 | 3.08 / 2.46 / 2.48 | 0 / 0 / 0.0305 | 0 / 0 / 0.0329 |
| 26 | CGCACG | 3.56 | 2.95 / 2.68 / 2.57 | 0 / 0.0211 / 0 | 0 / 0.0180 / 0 |
| 27 | CGCCAG | 3.46 | 2.75 / 2.64 / 2.88 | 0.0199 / 0 / 0 | 0 / 0 / 0 |
| 28 | CGCCGG | 3.47 | 2.86 / 2.98 / 2.66 | 0 / 0 / 0 | 0 / 0 / 0 |
| 29 | CGCCUG | 3.31 | 3.30 / 2.44 / 2.98 | 0 / 0 / 0 | 0 / 0 / 0 |
| 30 | CGCUAG | 3.99 | 2.79 / 3.06 / 2.64 | 0.0398 / 0 / 0.0305 | 0 / 0 / 0 |
| 31 | CGCUCG | 3.97 | 3.06 / 3.13 / 2.63 | 0.219 / 0.254 / 0 | 0 / 0 / 0.0164 |
| 32 | CGGAAG | 5.16 | 3.34 / 3.07 / 2.98 | 0.0199 / 0 / 0 | 0 / 0 / 0.0329 |
| 33 | CGGCUA | 0.276 | 0 / 0.0562 / 0.0357 | 0 / 0 / 0 | 0 / 0 / 0 |
| 34 | CGUAUG | 3.19 | 2.90 / 2.72 / 2.43 | 0 / 0 / 0 | 0 / 0 / 0 |
| 35 | CGUGUG | 4.14 | 3.38 / 2.64 / 2.66 | 0 / 0 / 0 | 0 / 0 / 0.0164 |
| 36 | CUACAG | 4.06 | 3.01 / 2.64 / 3.30 | 0.0199 / 0 / 0.0305 | 0 / 0 / 0.0493 |
| 37 | CUCCAG | 3.82 | 2.99 / 2.89 / 2.45 | 0 / 0 / 0 | 0 / 0 / 0.0164 |
| 38 | CUCCCG | 3.64 | 2.95 / 2.74 / 2.45 | 0 / 0 / 0 | 0 / 0 / 0 |
| 39 | CUCCGG | 4.22 | 3.14 / 2.57 / 3.02 | 0 / 0 / 0.0610 | 0 / 0 / 0.0493 |
| 40 | CUCGGG | 3.89 | 3.49 / 6.81 / 3.25 | 0 / 0.0211 / 0 | 0 / 0.0180 / 0.0164 |
| 41 | CUCGUG | 3.80 | 2.73 / 3.41 / 2.72 | 0 / 0 / 0 | 0 / 0 / 0.0822 |
| 42 | CUGCCG | 3.34 | 3.34 / 0 / 2.55 | 0 / 0 / 0 | 0 / 0 / 0 |
| 43 | CUGGUG | 4.13 | 2.97 / 2.55 / 2.89 | 0 / 0 / 0 | 0.0203 / 0 / 0 |
| 44 | CUUCUG | 3.39 | 2.80 / 2.76 / 2.54 | 0 / 0 / 0 | 0 / 0 / 0 |
| 45 | CUUUCG | 3.93 | 2.58 / 2.87 / 2.70 | 0 / 0 / 0 | 0 / 0 / 0 |
| 46 | CUUUGG | 3.59 | 3.03 / 2.61 / 2.47 | 0.0199 / 0.0211 / 0 | 0 / 0 / 0 |
| 47 | GCGCGG | 0.0131 | 0 / 0 / 0 | 0 / 0 / 0 | 0 / 0 / 0 |

6 of these entries, quoted again:

* CGUGUG (pool 4.14) = inoculated region 3.38 / 2.64 / 2.66; leaf margin 0 / 0 / 0; systemic leaves 0 / 0 / 0.0164
* CCGCUG (pool 3.95) = inoculated region 3.04 / 2.91 / 2.52; leaf margin 0 / 0 / 0; systemic leaves 0 / 0 / 0.0329
* CCUGGG (pool 3.34) = inoculated region 3.49 / 2.70 / 3.63; leaf margin 0.139 / 0.507 / 0.183; systemic leaves 4.89 / 7.60 / 7.45
* CUCCAG (pool 3.82) = inoculated region 2.99 / 2.89 / 2.45; leaf margin 0 / 0 / 0; systemic leaves 0 / 0 / 0.0164
* AAUAUG (pool 0.0131) = inoculated region 0 / 0 / 0; leaf margin 0 / 0 / 0; systemic leaves 0 / 0 / 0
* CCGGUG (pool 3.47) = inoculated region 2.79 / 2.44 / 2.75; leaf margin 0 / 0.0211 / 0; systemic leaves 0 / 0 / 0

Reference: Wu et al. 2024, doi:10.1371/journal.ppat.1012142.